The target in series [1] is SarR (partially purified native, ~12 kDa) (Staphylococcus aureus) (UniProt Q2FEJ8). Description: pull-down. Conditions: DNA-Sepharose affinity column from S. aureus lysate; purified native protein.
Series [2] concerns the target SarR (Staphylococcus aureus) (UniProt Q2FEJ8). Description: footprint. The following applies: purified recombinant protein.

Consider two sequences from US20050239704.

For at least one entry, the source does not settle the construct or the ends of the probe.

“TCTTAAGACCTAAATTAATGTTATTTTTTAATAATTTACACCAAATTAA (double strand) [49-bp sarA P2 upstream fragment (nt 71-119)]”: the binding result in series [1] is “binds”; in series [2] (30-100 ng SarR, 5 mM MgCl2, 1 mM CaCl2, 100 mM NaCl, pH 8.0, RT), “binds”.

For “TTACTAAATTAAAAAAATTA (double strand) [sarA P3 protected region]”, the binding result in series [2] (protected region within P3 fragment nt 364-525, variant of sarA P3 promoter fragment (nt 364-525)) is given as “binds”.
